Anti-infective test results gathered from many reports (values: NIAID ChemDB through PubChem).

All rows: growth or infection tests; agent: Mycobacterium tuberculosis

MIC bound comes from a single tested concentration. MIC50, MIC90 and the like: level of inhibition, or share of isolates inhibited. Neighbouring rows are from separate reports. ECn is the concentration giving n% inhibition of infection, replication or growth. Inhibition is in % at the dose shown (toxicity tests: loss of growth or viability). Blank or dashed fields: not listed here.

smiles	dose	cells	changes	strain	method	measure	result
CC[C@H]1OC(=O)[C@H](C)[C@@H](O[C@H]2C[C@@](C)(OC)[C@@H](O)[C@H](C)O2)[C@H](C)[C@@H](O[C@@H]2O[C@H](C)C[C@H](N(C)C)[C@H]2O)[C@](C)(O)C[C@@H](C)C(=O)[C@H](C)[C@@H](O)[C@]1(C)O	-	-	-	DRUG-SUS	-	MIC50	>8 µg/mL
CC(C)N(O)C(=O)C(=O)O	-	-	-	ATCC35801	-	MIC	18 µg/mL
C=CCS/C(N)=N/NC(=O)c1ccc(C)cc1	-	-	-	H37Rv	-	MIC	>100 µg/mL
C/C=C/c1ccc2c(c1)[C@@H](C)[C@H](c1ccc(OC)cc1)O2	-	-	isoniazid rifampicin pyrazinamide resistant	Clinical isolate 73-A	resazurin / absorbance	MIC	3.9 µg/mL
C/C(=N\Nc1cc(C)c2cc(C)ccc2n1)c1ccccn1	-	-	-	H37Rv	-	MIC	6.25 µg/mL
Cn1c(NNc2nc(NCc3ccccc3)nc(NCc3ccccc3)n2)nc(-c2ccc(Cl)cc2)c(C#N)c1=O	12.5 µg/mL	-	-	H37Rv	-	inhibition	84%
NC(=S)N/N=C/c1ccc2oc3ccccc3c2c1	-	-	-	CS-R	-	MIC	≤0.05 µg/mL
COc1cccc(Nc2nc(NNc3nc(-c4ccc(Cl)cc4)c(C#N)c(=O)n3C)nc(Nc3cccc(OC)c3)n2)c1	-	-	-	H37Rv	-	MIC	>12.5 µg/mL
CC[C@@H](CO)NCCN[C@@H](CC)CO	-	-	-	Isolate 17	-	MIC	1 µg/mL
CNC(=O)Oc1ccc2c(c1)[C@]1(C)CCN(C)[C@@H]1N2C	-	-	-	H37Rv	BACTEC	MIC	≥128 µg/mL
COc1ccccc1Nc1nc(NNc2nc(-c3ccccc3)c(C#N)c(=O)n2C)nc(Nc2ccccc2OC)n1	-	-	-	H37Rv	-	EC50	<12.5 µg/mL
CCCc1ncc(C(N)=O)nc1SC	-	-	-	H37Rv	-	MIC	>12.5 µg/mL
CO/N=C(\C(=O)N[C@@H]1C(=O)N2C(C(=O)O)=CCS[C@H]12)c1csc(N)n1	100 µg/mL	-	-	8 strains	BACTEC	inhibition	100%
NC[C@H]1O[C@H](O[C@H]2[C@H](O)[C@@H](O[C@H]3O[C@H](CO)[C@@H](O)[C@H](N)[C@H]3O)[C@H](N)C[C@@H]2N)[C@H](O)[C@@H](O)[C@@H]1O	-	-	-	Isolate 8	-	MIC	2 µg/mL
CSc1nc(C(N)=S)cnc1C(C)(C)C	-	-	-	H37Rv	-	MIC	>6.25 µg/mL
N#C/C(=C\c1ccc[nH]1)n1nc2ccccc2n1	-	-	-	H37Rv	-	EC50	>12.5 µg/mL
O=[N+]([O-])c1cc(C(F)(F)F)cc2nc(C3=NCCO3)sc12	-	-	-	H37Rv	resazurin / absorbance	MBC	1 µg/mL
N#C/C(=C\c1ccc2c(c1)OCO2)n1nc2ccccc2n1	-	-	-	H37Rv	-	EC50	>12.5 µg/mL
CCCc1ccc2oc(-c3ccc(O)c(OC)c3)c(C)c2c1	-	-	-	Clinical isolate 13 638	resazurin / absorbance	MIC	7.8 µg/mL
NC[C@H]1O[C@H](O[C@H]2[C@H](O)[C@@H](O[C@H]3O[C@H](CO)[C@@H](O)[C@H](N)[C@H]3O)[C@H](N)C[C@@H]2N)[C@H](O)[C@@H](O)[C@@H]1O	-	-	-	H37Rv	-	MBC	16 µg/mL
CO/N=C(/C(=O)N[C@@H]1C(=O)N2C(C(=O)[O-])=C(C[n+]3cccc4c3CCC4)CS[C@H]12)c1csc(N)n1	100 µg/mL	-	-	8 strains	BACTEC	inhibition	100%
Cc1c(C2CC(=O)NC2=O)c2ccccc2n1C	-	-	-	H37Rv	BACTEC	MIC bound	>12.5 µg/mL
Cc1ccc(/C=C(\C(N)=O)n2nnc3ccccc32)cc1	12.5 µg/mL	-	-	H37Rv	-	inhibition	0%
CCSc1nc(C(N)=O)cnc1CC(C)C	12.5 µg/mL	-	-	H37Rv	-	inhibition	<90%
NNC(=O)c1ccncc1	-	-	isoniazid rifampicin pyrazinamide resistant	Clinical isolate 73-A	resazurin / absorbance	MIC	4 µg/mL
CN(C)C1C(=O)C(C(N)=O)=C(O)C2(O)C(=O)C3=C(O)c4c(O)ccc(Cl)c4[C@](C)(O)[C@@H]3C[C@H]12.[Cl][Sb]([Cl])[Cl]	12.5 µg/mL	-	-	H37Rv	BACTEC	inhibition	43%
Cn1nnc(-c2ccc(-c3ccc(N4C[C@H](CO)OC4=O)cc3F)cn2)n1	-	-	-	61 isolates (isoniazid rifampin-susceptible)	-	MIC90	0.5 µg/mL
O=C(c1nc2cc(C(F)(F)F)cc([N+](=O)[O-])c2s1)N1CCCCC1	-	-	-	H37Rv	resazurin / absorbance	MBC	0.5 µg/mL
C=CCS/C(N)=N/NC(=O)c1ccccc1	-	-	-	H37Rv	-	MIC	>100 µg/mL
CCOC(=O)c1nc(C)cnc1N	12.5 µg/mL	-	-	H37Rv	BACTEC	inhibition	19%
CC1COc2c(N3CCN(C)CC3)c(F)cc3c(=O)c(C(=O)O)cn1c23	-	-	-	Drug-resistant	-	MIC50	0.5 µg/mL
O=C1C(Cl)=C(Nc2ccc(Nc3ccccc3)c(NC3=C(Cl)C(=O)c4ccccc4C3=O)c2)C(=O)c2ccccc21	-	-	-	H37Rv	BACTEC	MIC bound	>12.5 µg/mL
CCCSc1nc(C(N)=O)cnc1CC(C)C	12.5 µg/mL	-	-	H37Rv	-	inhibition	<90%
c1ccc(-c2[nH]c(-c3ccccc3)c(-c3cnccn3)c2-c2cnccn2)cc1	-	-	-	H37Rv	BACTEC	MIC bound	>12.5 µg/mL
NC[C@H]1O[C@H](O[C@H]2[C@H](O)[C@@H](O[C@H]3O[C@H](CO)[C@@H](O)[C@H](N)[C@H]3O)[C@H](N)C[C@@H]2N)[C@H](N)C[C@@H]1O	-	-	-	H37Rv	-	MBC	>64 µg/mL
CCCCn1c(=O)c2c(ncn2C)n(C)c1=O	12.5 µg/mL	-	-	H37Rv	BACTEC	inhibition	13%
C[C@@H]1CN(c2c(F)c(N)c3c(=O)c(C(=O)O)cn(C4CC4)c3c2F)C[C@H](C)N1	-	-	-	Isolate 16	-	MIC	0.13 µg/mL
CCN(CC)CCNc1ccc(CO)c2oc3ccc(OS(=O)(=O)c4ccc(C)cc4)cc3c(=O)c12	-	-	-	CS-R	-	MIC	12.5 µg/mL
COCCN1CCN(C(=O)c2nc3cc(C(F)(F)F)cc([N+](=O)[O-])c3s2)CC1	-	-	Overexpressing Rv3790 (DprE1)	H37Rv	resazurin / absorbance	MIC80	16 µg/mL
COc1cccc(Nc2nc(NNc3nc(-c4ccccc4)c(C#N)c(=O)n3C)nc(Nc3cccc(OC)c3)n2)c1	-	VERO	-	H37Rv	-	MIC	>12.5 µg/mL
COc1ccc(C2OC3=C(Nc4ccc([N+](=O)[O-])cc4N3)C2=O)cc1OC	-	-	-	H37Rv	BACTEC	MIC bound	>12.5 µg/mL
COc1cc(C(=O)NNC(N)=S)cc(OC)c1OC	-	-	-	H37Rv	-	MIC	>100 µg/mL
O=C1C=C(Nc2ccccn2)C(=O)C=C1Nc1ccccn1	-	-	-	H37Rv	resazurin	MIC bound	>6.25 µg/mL
Cn1c(NNc2nc(Nc3ccc(Cl)cc3)nc(Nc3ccc(Cl)cc3)n2)nc(-c2ccc(Cl)cc2)c(C#N)c1=O	-	-	-	H37Rv	-	MIC	12.5 µg/mL
C[C@@H](O)[C@H]1C(=O)N2C(C(=O)O)=C(SCCN=CN)C[C@H]12	100 µg/mL	-	-	9 strains	BACTEC	inhibition	66.7%
CCCc1cc(=O)oc2c3c(cc(OC(C)C)c12)O[C@H](C)[C@H](C)C3O	-	-	-	H37Ra	-	MBC	64 µg/mL
O=S(=O)(N=C1C=CC(=NS(=O)(=O)c2ccccc2)C=C1)c1ccccc1	-	-	-	H37Rv	BACTEC	MIC bound	>12.5 µg/mL
Cn1c(NNc2nc(Nc3cccc([N+](=O)[O-])c3)nc(Nc3cccc([N+](=O)[O-])c3)n2)nc(-c2ccccc2)c(C#N)c1=O	12.5 µg/mL	-	-	H37Rv	-	inhibition	58%
CC[C@H]1OC(=O)[C@H](C)[C@@H](O[C@H]2C[C@@](C)(OC)[C@@H](O)[C@H](C)O2)[C@H](C)[C@@H](O[C@@H]2O[C@H](C)C[C@H](N(C)C)[C@H]2O)[C@](C)(OC)C[C@@H](C)C(=O)[C@H](C)[C@@H](O)[C@]1(C)O	-	-	-	ATCC 35827	-	MIC	>8 µg/mL
c1ccc(-c2oc3ccc4ccccc4c3c2-c2ccc(OCCN3CCCC3)cc2)cc1	-	-	-	H37Rv	-	MIC	1.6 µg/mL
N/C(=N\NC(=O)c1ccc(Cl)cc1)SCc1cccc(Cl)c1	-	-	-	H37Rv	-	MIC	>100 µg/mL
NC(=O)/C(=C\c1ccc(Br)cc1)n1nnc2ccccc21	-	-	-	H37Rv	-	EC50	>12.5 µg/mL
NNC(=O)c1ccncc1	-	-	-	Pan-susceptible clinical isolate 7	-	MIC	0.06 µg/mL
NC(=O)C#CC(N)=O	-	-	-	H37Rv	BACTEC	MIC bound	≤12.5 µg/mL
NC[C@@H]1O[C@H](O[C@H]2[C@@H](O)[C@H](O[C@@H]3[C@@H](O)[C@H](N)C[C@H](N)[C@H]3O[C@H]3O[C@H](CN)[C@@H](O)[C@H](O)[C@H]3N)O[C@@H]2CO)[C@H](N)[C@@H](O)[C@@H]1O	-	-	-	H37Rv	-	MBC	32 µg/mL
CCCCSc1nc(C(N)=S)cnc1CC(C)C	-	-	-	H37Rv	-	MIC	>12.5 µg/mL
CCCc1cc(=O)oc2c(C(=O)CC)c(O[Si](C)(C)C(C)(C)C)c3c(c12)OC(C)(C)CC3	-	-	-	H37Ra	-	MIC	>128 µg/mL
N#C/C(=C\c1cccs1)n1nc2ccccc2n1	-	-	-	H37Rv	-	EC50	>12.5 µg/mL
CO/N=C(\C(=O)N[C@@H]1C(=O)N2C(C(=O)O)=C(CSc3nnnn3CCNS(=O)(=O)O)CS[C@H]12)c1csc(N)n1	100 µg/mL	-	-	8 strains	BACTEC	inhibition	0%
CCC/C(=N\O)S(=O)(=O)c1ccc(NN=O)nc1	12.5 µg/mL	-	-	H37Rv	BACTEC	inhibition	0%
Cc1c(C(F)(F)F)cc2nc(C(=O)N3CCCCC3)sc2c1[N+](=O)[O-]	-	-	-	H37Rv	resazurin / absorbance	MBC	1 µg/mL
CCCc1cc(=O)oc2c(C(=O)CC)c(OCC)c3c(c12)OC(C)(C)C=C3	-	-	-	H37Ra	-	MIC	128 µg/mL
CC(C)c1ccc2nc3ccc(C(=O)NCCN4CCN(c5ccccc5)CC4)cn3c(=O)c2c1	-	-	-	H37Rv	BACTEC	MIC bound	≤12.5 µg/mL
Cc1c2c(cc(CO)c1C(O)CO)[C@@H](O)[C@H](C)C2=O	-	-	-	H37Rv	agar	MIC	47 µM
O=C(NC1CCOC1=O)OCc1ccccc1	12.5 µg/mL	-	-	H37Rv	BACTEC	inhibition	-5%
COc1ccc(/C=C(\C#N)n2nnc3ccccc32)cc1OC	12.5 µg/mL	-	-	H37Rv	-	inhibition	0%
C=C1C(=O)O[C@H]2[C@H]1CC/C(C)=C/CC[C@@]1(C)O[C@@H]21	-	-	-	H37Rv	BACTEC	MIC	≥12.8 µg/mL
O=C(O)/C(=C\c1ccccc1)n1nnc2ccccc21	-	-	-	H37Rv	-	EC50	>12.5 µg/mL
NC1CCN(c2c(F)cc3c(=O)c(C(=O)O)cn(C4CC4)c3c2Cl)C1	-	-	-	MDR	-	MBC90	4 µg/mL
Cc1c(C(F)(F)F)cc2nc(C3=N[C@H](C(=O)N4CCCC4)CO3)sc2c1[N+](=O)[O-]	-	-	BTZ-resistant (C387S)	H37Rv	resazurin / absorbance	MIC80	64 µg/mL
NNC(=O)C1=CN(CCc2ccccc2)C=CC1	-	-	-	H37Rv	BACTEC	MIC bound	>12.5 µg/mL
Cc1cc2c(c(C)c1CCO)C(=O)[C@H](C)C2	-	-	-	H37Rv	agar	MIC	183.5 µM
C[C@@H]1CN(c2c(F)c(N)c3c(=O)c(C(=O)O)cn(C4CC4)c3c2F)C[C@H](C)N1	-	-	-	ATCC 35826	-	MIC	0.06 µg/mL
Cc1cc2c(c(C)c1C(O)CO)C(=O)[C@](C)(CO)C2	-	-	-	H37Rv	agar	MIC	23.7 µM
CCCCSc1nc(C(N)=O)cnc1CC(C)C	12.5 µg/mL	-	-	H37Rv	-	inhibition	<90%
COc1ccc(C(=O)N/N=C(\N)SCc2cccc(Cl)c2)cc1	-	-	-	H37Rv	-	MIC	>100 µg/mL
Cn1c(NNc2nc(Nc3cccc(Cl)c3)nc(Nc3cccc(Cl)c3)n2)nc(-c2ccccc2)c(C#N)c1=O	12.5 µg/mL	VERO	-	H37Rv	-	inhibition	92%
CN1CCC(CN2c3ccccc3Sc3ccccc32)C1	-	-	-	K2	-	MIC	10 µg/mL
CCCc1cc(=O)oc2c(C(=O)CC)c(OCOC)c3c(c12)OC(C)(C)CC3	-	-	-	H37Ra	-	MIC	>128 µg/mL
CCSc1nc(C(N)=S)cnc1C(C)(C)C	-	-	-	H37Rv	-	MIC	>12.5 µg/mL

Repeating the final 6 entries:

smiles,dose,cells,changes,strain,method,measure,result
CCCCSc1nc(C(N)=O)cnc1CC(C)C,12.5 µg/mL,-,-,H37Rv,-,inhibition,<90%
COc1ccc(C(=O)N/N=C(\N)SCc2cccc(Cl)c2)cc1,-,-,-,H37Rv,-,MIC,>100 µg/mL
Cn1c(NNc2nc(Nc3cccc(Cl)c3)nc(Nc3cccc(Cl)c3)n2)nc(-c2ccccc2)c(C#N)c1=O,12.5 µg/mL,VERO,-,H37Rv,-,inhibition,92%
CN1CCC(CN2c3ccccc3Sc3ccccc32)C1,-,-,-,K2,-,MIC,10 µg/mL
CCCc1cc(=O)oc2c(C(=O)CC)c(OCOC)c3c(c12)OC(C)(C)CC3,-,-,-,H37Ra,-,MIC,>128 µg/mL
CCSc1nc(C(N)=S)cnc1C(C)(C)C,-,-,-,H37Rv,-,MIC,>12.5 µg/mL